A mixed list of measured activities; the numbers were collected in NIAID ChemDB.

Shared fields: whole-cell or culture tests; species: HIV-2; endpoint: inhibition

Percent inhibition refers to the dose given; in toxicity tests it is the harm to the cells. An empty or dashed field is not shown. Rows are shuffled and stem from different studies.

| smiles | dose | strain or isolate | read by | cell line | result |
|---|---|---|---|---|---|
| COc1c(C)c2c(c(O)c1C/C=C(\C)CCC(=O)O)C(=O)OC2 | 1 µM | UC7 | RT activity | PBL(CD4+) + PBL | 80% |
| Nc1ccn([C@H]2CC[C@@H](CO)O2)c(=O)n1 | 25 µM | ROD | cytopathic effect / XTT | CEM + CEM-SS | 0.03% |
| O=C(NCCc1ccccc1)Nc1nc(C(F)(F)F)cs1 | 1 µg/mL | - | cytopathic effect / XTT | MT-4 | 100% |
| CC(C)CN(C[C@@H](O)[C@H](Cc1ccccc1)NC(=O)O[C@H]1CO[C@H]2OCC[C@H]21)S(=O)(=O)c1ccc2nc(NC3CCN(C4CCCC4)CC3)sc2c1 | 0.0064 µM | ROD | reporter gene | MT-4 | 90% |
| CCn1c(C)c(C(=O)OC)c(C(=O)OC)c1Cc1ccccc1 | 10 µM | ROD | cytopathic effect / MTT | CEM + CEM-SS | 0% |
| CCOP(=O)(OCC)C(O)Cn1cc(-n2cc(C)c(=O)[nH]c2=O)nn1 | 100 µM | ROD | - | CEM | 0% |
| Cc1cc(C)c(S(=O)(=O)OCC2OC3OC4C(CO)OC(OC5C(CO)OC(OC6C(CO)OC(OC7C(CO)OC(OC8C(CO)OC(OC9C(C[n+]%10ccccc%10)OC(OC2C(O)C3O)C(O)C9O)C(O)C8O)C(O)C7O)C(O)C6O)C(O)C5O)C(O)C4O)c(C)c1 | 64.4 µg/mL | GH-1 | syncytia | MOLT-4 | 100% |
| Nc1ncnc2c1ncn2Cc1cn(C(O)P(=O)(O)O)nn1 | 100 µM | ROD | - | - | 0% |
| CC(C)[C@H](NC(=O)[C@H](Cc1ccccc1)C[C@H](O)[C@H](Cc1ccccc1)NC(=O)OC(C)(C)C)C(=O)N[C@@H](Cc1ccccc1)C(=O)N1CCOCC1 | 1 µM | ROD | RT activity | PBL | 74% |
| CC(C)CN(C[C@@H](O)[C@H](Cc1ccccc1)NC(=O)O[C@H]1CO[C@H]2OCC[C@H]21)S(=O)(=O)c1ccc2nc(NC3CCN(C4CCCC4)CC3)sc2c1 | 6.4 nM | ROD | reporter gene | MT-4 | 90% |
| COc1ncnc(NS(=O)(=O)c2ccc(N=C3C(=O)N(CN4CCCCC4)c4ccccc43)cc2)c1OC | 2 µg/mL | ROD | cytopathic effect / MTT | MT-4 | 13% |
| COc1cc(C)cc2c(-c3c(O)cc(O)c4c3C[C@H](C)N[C@H]4C)cc(-c3cc(-c4c(O)cc(O)c5c4C[C@H](C)N[C@H]5C)c4cc(C)cc(OC)c4c3O)c(O)c12 | 250 µM | NIH-DZ | cytopathic effect / XTT | MT-2 | 40% |
| O=C1[C@@H](Cc2ccc(O)cc2)NC(=S)N1c1ccccc1 | 1 µg/mL | - | cytopathic effect / XTT | MT-4 | 0% |
| CC(=O)NC1C=CN(c2cn(C(O)CCCP(=O)(O)O)nn2)C(=O)N1 | 100 µM | ROD | - | CEM | 0% |
| CCCCN1C(=O)[C@@H](Cc2ccccc2)NC1=S | 100 µg/mL | - | cytopathic effect / XTT | MT-4 | 100% |
| CCOP(=O)(CCn1cc(N2C=CC(NC(C)=O)NC2=O)nn1)OCC | 100 µM | ROD | - | CEM | 0% |
| CC(C)N(C[C@H](O)[C@H](Cc1ccccc1)NC(=O)C(CC(N)=O)NC(=O)C1C=Cc2ccccc2N1)NC(=O)OC(C)(C)C | 0.03 µM | ROD | cytopathic effect / RT activity | MT-2 | 90% |

Again, the opening 2 rows:

smiles | dose | strain or isolate | read by | cell line | result
COc1c(C)c2c(c(O)c1C/C=C(\C)CCC(=O)O)C(=O)OC2 | 1 µM | UC7 | RT activity | PBL(CD4+) + PBL | 80%
Nc1ccn([C@H]2CC[C@@H](CO)O2)c(=O)n1 | 25 µM | ROD | cytopathic effect / XTT | CEM + CEM-SS | 0.03%